Anti-infective test results gathered from many reports (values: NIAID ChemDB through PubChem).

All rows: growth or infection tests; agent: Mycobacterium avium; read-out: MIC

Neighbouring rows are from separate reports. An empty or dashed field is not shown.

structure,strain,conditions,result
Clc1ccc(/C(Cn2ccnc2)=N\OCc2ccccc2)cc1,103317,,1.53 µM
COc1ccc(C(=O)Nn2c(C)nc3scc(-c4ccco4)c3c2=O)cc1,CNCTC MY330/88,,8 µM
O=[N+]([O-])c1ccc(Sc2nc3c(Br)c(Br)c(Br)c(Br)c3[nH]2)c([N+](=O)[O-])c1,MY330/88,,125 µM
O=C(NCc1ccc(Br)cc1)c1ncccc1O,CNCTC MY330/88,,32 µM
Clc1ccc(/C(Cn2ccnc2)=N/OCc2ccccc2)c(Cl)c1,103317,,1.39 µM
C=C1C(=O)O[C@@H]2/C=C(\C)CC[C@H]3OC3(C)CC[C@@H]12,,,128 µg/mL
O=c1oc2ccc(Br)cc2c(=O)n1-c1ccccc1,CNCTC MY330/88,,62 µM
O=[N+]([O-])c1ccc(Sc2nc3c(Cl)cc(Cl)cc3[nH]2)c([N+](=O)[O-])c1,MY330/88,,62.5 µM
CN1CCN(Cc2ccc(NC(=O)c3ccc(-c4ccccc4)cc3)cc2)CC1,103317,,>16 µg/mL
Cc1ccc(C)c(/C=N/N=C(\N)c2ccccn2)c1,,,256 µg/mL
CC(C)=CCC/C(C)=C\CC(C/C=C(/C)CCC=C(C)C)C(=O)O,,,>1000 µM
C=C1C(=O)O[C@H]2[C@H]1CCC1(C)O[C@@H]1CC[C@@]1(C)O[C@@H]21,,,128 µg/mL
O=[N+]([O-])c1cc(CSc2ncn[nH]2)cc([N+](=O)[O-])c1,MY330/88,,1000 µM
O=c1oc2ccc(Cl)cc2c(=S)n1-c1ccc(F)cc1,MY330/88,14 d,62.5 µM
C=C1CC[C@@H](O)[C@]2(C)CC[C@@H](C(C)CO)[C@H](O)[C@@H]12,,,>128 µg/mL
FC(F)(F)C(F)(F)C(F)(F)c1nc2c(Br)c(Br)c(Br)c(Br)c2[nH]1,MY330/88,,62.5 µM
Cc1nc2scc(-c3ccco3)c2c(=O)n1/N=C/c1ccc(F)cc1F,CNCTC MY330/88,,5 µM
c1ccc(CO/N=C(/Cn2ccnc2)c2ccccc2)cc1,103317,,1.72 µM
Fc1ccc2oc(=S)n(-c3cccc(Cl)c3)c(=S)c2c1,MY330/88,14 d,8 µM
CCCCCc1ccc(NC(=O)c2cc(Cl)ccc2O)cc1,MY330/88,,16 µM
N/C(=N/N=C/c1ccc(Cl)cc1)c1ccccn1,,,32 µg/mL
Cc1ccc2c(=O)n(-c3ccc(C#N)cc3)c(=O)oc2c1,CNCTC MY330/88,,32 µM
Cc1ccc2occ(/C=N/c3nc4c(Cl)cccc4s3)c(=O)c2c1,MY 80/72,,>100 µg/mL
Clc1ccc(C(Cn2ccnc2)OCc2ccc(-c3ccccc3)cc2)cc1,103317,,5.15 µM
CN1CCN(Cc2ccc(NC(=O)/C=C/c3ccccc3)cc2)CC1,103317,,>16 µg/mL
Fc1ccc2oc(=S)n(-c3ccc(Cl)cc3)c(=S)c2c1,MY330/88,14 d,16 µM
CCCCCOc1ccccc1NC(=O)OCCN(C)C,MY330/88,,62.5 µM
C/C(=C\CC[C@H](C)CCO)CC(Cc1ccccc1)C(=O)O,,,125 µM
CCCCCCc1ccc(NC(=O)c2cc(Br)cc(Br)c2O)cc1,MY330/88,,32 µM
COc1ccc2c(=O)n(-c3ccc(C)cc3)c(=O)oc2c1,CNCTC MY330/88,,32 µM
C/C=N/n1c(C)nc2scc(-c3ccco3)c2c1=O,CNCTC MY330/88,,62 µM
CC(=O)NC[C@H]1CN(c2ccc(N3CCN(c4ccc([N+](=O)[O-])s4)CC3)c(F)c2)C(=O)O1,ATCC49601,,<0.125 µg/mL
COc1ccccc1/C=N/N=C(/N)c1ccccn1,,,128 µg/mL
O=C(Nc1ccc(Cn2ccnc2)cc1)c1ccc(Cl)cc1,103317,,>16 µg/mL
c1ccc(-c2ccc(COC(Cn3ccnc3)c3ccccc3)cc2)cc1,103317,,22.6 µM
CC(C(=O)O)c1ccccc1,,,>100 µM
C=C(CO)[C@@H]1CC[C@@]2(C)[C@H](O)CC=C(C)[C@@H]2[C@H]1O,,,>128 µg/mL
CCCCCCCc1ccc(NC(=O)c2cc(Cl)ccc2O)cc1,MY330/88,,4 µM
CCCCCCCOc1ccc(NC(=O)OCC[NH+]2CCCC2)cc1,MY330/88,,16 µM
CCCCCCCCc1ccc(NC(=O)c2cc(Cl)ccc2O)cc1,MY330/88,,32 µM
FC(F)(F)c1ccc(CSc2ncn[nH]2)cc1,MY330/88,,250 µM
CCOC1Oc2ccc(C)cc2C(=O)/C1=C/Nc1nc2ccccc2s1,MY 80/72,,>100 µg/mL
C[C@H]1COc2c(N3CCN(C)CC3)c(F)cc3c(=O)c(C(=O)O)cn1c23,101,,8 µg/mL
O=C(NCc1ccc([N+](=O)[O-])cc1)c1ncccc1S,CNCTC MY330/88,,16 µM
c1ccc(-c2ccc(CNC(Cn3ccnc3)c3ccccc3)cc2)cc1,103317,,11.3 µM
Cc1nc2scc(-c3ccco3)c2c(=O)n1NC(=O)c1cccs1,CNCTC MY330/88,,45 µM
FC(F)(F)C(F)(F)C(F)(F)c1nc2c(Cl)cc(Cl)cc2[nH]1,MY330/88,,32 µM
O=c1oc2ccccc2c(=O)n1-c1ccc([N+](=O)[O-])cc1,CNCTC MY330/88,,16 µM
O=c1c(/C=N/c2nc3c(Cl)cccc3s2)coc2ccc(Cl)cc12,MY 80/72,,>100 µg/mL
O=C(NCc1ccccc1)c1ncccc1S,CNCTC MY330/88,,8 µM
Cc1nc2scc(-c3ccco3)c2c(=O)n1/N=C/c1ccc([N+](=O)[O-])cc1,CNCTC MY330/88,,6 µM
O=C(NCc1cccc([N+](=O)[O-])c1)c1ncccc1O,CNCTC MY330/88,,250 µM
Fc1ccc(CSc2ncn[nH]2)cc1,MY330/88,,500 µM
COc1cccc(NC(=O)OCC[NH+]2CCCC2)c1,MY330/88,,1000 µM
Cc1ccc(/C=N/n2c(C)nc3scc(-c4ccco4)c3c2=O)cc1,CNCTC MY330/88,,57 µM
CCCCCCCCCCCC(C)C(=O)O,,,250 µM
O=C(NCc1ccc(Cl)c(Cl)c1)c1ncccc1S,CNCTC MY330/88,,32 µM
CC(C)(C)c1ccc(COC(Cn2ccnc2)c2ccc(Cl)cc2Cl)cc1,103317,,2.48 µM
CCCCCCCCc1ccc(NC(=O)c2ccc(Cl)cc2O)cc1,MY330/88,,8 µM
CC(C)=CCC/C(C)=C\CC(C(=O)O)c1ccccc1,,,250 µM
O=[N+]([O-])c1cccc(CSc2ncn[nH]2)c1,MY330/88,,500 µM
Clc1ccc(/C(Cn2ccnc2)=N\OCc2ccc(-c3ccccc3)cc2)cc1,103317,,19.9 µM
O=C(NCc1ccc(Cl)cc1)c1ncccc1O,CNCTC MY330/88,,62.5 µM
CCCCCCOc1cccc(NC(=O)OCCN2CCOCC2)c1,MY330/88,,32 µM
O=C(NCc1ccc([N+](=O)[O-])cc1)c1ncccc1O,CNCTC MY330/88,,125 µM
CC(C)(C)c1ccc(NC(=O)c2cc(Cl)ccc2O)cc1,MY330/88,,16 µM
O=C(Nc1cccc(CN2CCOCC2)c1)c1ccc(-c2ccccc2)cc1,103317,,>16 µg/mL
Fc1cccc(Cl)c1CSc1ncn[nH]1,MY330/88,,500 µM
FC(F)(F)C(F)(F)C(F)(F)C(F)(F)c1nc2cc(Cl)c(Cl)cc2[nH]1,MY330/88,,4 µM
CCCc1ccc(NC(=O)c2cc(Cl)ccc2O)cc1,MY330/88,,8 µM
COc1ccc2oc(=O)n(-c3cccc(F)c3)c(=O)c2c1,CNCTC MY330/88,,125 µM
CCCCCCCCCCC(C(=O)O)c1ccccc1,,,20 µM
FC(F)(F)C(F)(F)C(F)(F)C(F)(F)c1nc2c(Br)c(Br)c(Br)c(Br)c2[nH]1,MY330/88,,32 µM
COc1ccc(NC(=O)OCCN2CCCCC2)cc1,MY330/88,,125 µM
CCNC1Oc2cc(C)c(C)cc2C(=O)/C1=C/Nc1ccc2[nH]c(=S)sc2c1,MY 80/72,,>5 µg/mL
O=c1oc2cc(Cl)ccc2c(=O)n1-c1cccc(F)c1,CNCTC MY330/88,,16 µM
Cc1c(F)c(N2CCNC(C)C2)cc2c1c(=O)c(C(=O)O)cn2C1CC1,ATCC 25291,,1 µg/mL
Cc1ccc2oc(=O)n(-c3cccc(F)c3)c(=S)c2c1,MY330/88,14 d,8 µM
Cc1nc2scc(-c3ccco3)c2c(=O)n1NC(=O)c1ccco1,CNCTC MY330/88,,40 µM
CCOC1Oc2ccc(Cl)cc2C(=O)/C1=C/Nc1nc2ccc(Cl)cc2s1,MY 80/72,,>100 µg/mL
N/C(=N/N=C/c1cccc(F)c1)c1ccccn1,,,64 µg/mL
CCCCc1ccc(NC(=O)c2cc(Br)ccc2O)cc1,MY330/88,,16 µM
O=c1oc2ccc(Cl)cc2c(=S)n1-c1cccc(F)c1,MY330/88,21 d,32 µM
COc1cc(/C=N/N=C(\N)c2ccccn2)cc(OC)c1OC,,,256 µg/mL

A second listing of 10 rows from above:

| structure | strain | conditions | result |
|---|---|---|---|
| Cc1nc2scc(-c3ccco3)c2c(=O)n1/N=C/c1ccc([N+](=O)[O-])cc1 | CNCTC MY330/88 |  | 6 µM |
| CC(C)(C)c1ccc(NC(=O)c2cc(Cl)ccc2O)cc1 | MY330/88 |  | 16 µM |
| O=c1oc2ccc(Cl)cc2c(=S)n1-c1cccc(F)c1 | MY330/88 | 21 d | 32 µM |
| Cc1nc2scc(-c3ccco3)c2c(=O)n1NC(=O)c1cccs1 | CNCTC MY330/88 |  | 45 µM |
| CCCc1ccc(NC(=O)c2cc(Cl)ccc2O)cc1 | MY330/88 |  | 8 µM |
| CCCCCCCOc1ccc(NC(=O)OCC[NH+]2CCCC2)cc1 | MY330/88 |  | 16 µM |
| c1ccc(-c2ccc(CNC(Cn3ccnc3)c3ccccc3)cc2)cc1 | 103317 |  | 11.3 µM |
| c1ccc(-c2ccc(COC(Cn3ccnc3)c3ccccc3)cc2)cc1 | 103317 |  | 22.6 µM |
| CCOC1Oc2ccc(C)cc2C(=O)/C1=C/Nc1nc2ccccc2s1 | MY 80/72 |  | >100 µg/mL |
| N/C(=N/N=C/c1cccc(F)c1)c1ccccn1 |  |  | 64 µg/mL |